Data as given in PubChem BioAssay AID624099 (ICCB-Longwood, 2012).

Purpose: 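Host factors E2 relies on to silence an HPV18 LCR reporter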 (primary screen)
Cells: human C33A cervical carcinoma cells (HPV-negative) stably expressing BPV1 E2 and an HPV18 LCR luciferase reporter
Reagent: siRNA pool against human genes, 40 nM
Duration: 72 h
Detection: 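HPV18 LCR reporter light per well, converted to plate-wise z-scores that exclude control wells, and averaged over triplicate plates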
Scale: mean z-score and z-score: higher = stronger reporter signal, weaker E2 silencing
Active means: 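Hit if mean z-score reaches 2 and two or more of three replicate z-scores also reach 2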
Shown is a random part of about 21,000 reagents tested. 497 of all reagents (2.4%) were called active. 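Higher z means weaker E2 silencing; only reporter increases were scored, and knock-downs that hurt cell survival may mask genuine repressor factors.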

| gene | mean z-score | z-score, replicate A | z-score, replicate B | z-score, replicate C | activity call |
| --- | --- | --- | --- | --- | --- |
| LINC02693 (long independently transcribed non-coding RNA 2693) | 0.94 | 0.92 | 0.72 | 1.19 | inactive |
| QRFPR (pyroglutamylated RFamide peptide receptor) | 0.78 | 0.68 | 0.96 | 0.71 | inactive |
| HARS2 (histidyl-tRNA synthetase 2, mitochondrial) | 0.39 | 0.55 | 0.24 | 0.39 | inactive |
| MUSK (muscle associated receptor tyrosine kinase) | -0.15 | -0.31 | 0.25 | -0.39 | inactive |
| SESN1 (sestrin 1) | 0.29 | 0.69 | 0.29 | -0.11 | inactive |
| SUPT20H (SPT20 homolog, SAGA complex component) | 0.24 | 0.02 | 0.53 | 0.18 | inactive |
| ARHGEF6 (Rac/Cdc42 guanine nucleotide exchange factor 6) | -0.71 | -0.5 | -0.92 | -0.7 | inactive |
| SLC5A11 | -0.47 | -0.41 | -0.59 | -0.41 | inactive |
| ACADL (acyl-CoA dehydrogenase long chain) | 0.72 | 0.67 | 0.72 | 0.77 | inactive |
| MT3 (metallothionein 3) | 0.29 | 0.88 | 0.08 | -0.08 | inactive |
| ZNF852 (zinc finger protein 852) | 0.17 | 0.18 | 0.3 | 0.04 | inactive |
| ARF5 (ARF GTPase 5) | -0.91 | -0.6 | -0.92 | -1.2 | inactive |
| LOC388189 (retired record) | -0.62 | -0.64 | -0.85 | -0.36 | inactive |
| CFL1P1 (cofilin 1 pseudogene 1) | -0.69 | -1.04 | -0.71 | -0.3 | inactive |
| CYP27A1 (cytochrome P450 family 27 subfamily A member 1) | 1.39 | 1.74 | 1.25 | 1.18 | inactive |
| PABPN1 (poly(A) binding protein nuclear 1) | 0.3 | 0.43 | 0.34 | 0.14 | inactive |
| TOP2B (DNA topoisomerase II beta) | 1.03 | 1.37 | 0.72 | 1 | inactive |
| KLHL4 (kelch like family member 4) | -1.37 | -1.25 | -1.54 | -1.31 | inactive |
| STK17A (serine/threonine kinase 17a) | -0.29 | -0.45 | -0.16 | -0.27 | inactive |
| AP1M2 (adaptor related protein complex 1 subunit mu 2) | 0.26 | 0.36 | 0.14 | 0.29 | inactive |
| ABI2 (abl interactor 2) | 0.08 | -0.2 | 0.07 | 0.38 | inactive |
| ZMAT4 (zinc finger matrin-type 4) | 2.07 | 1.89 | 1.92 | 2.4 | inactive |
| KCTD12 (potassium channel tetramerization domain containing 12) | 1.38 | 1.52 | 1.1 | 1.53 | inactive |
| TEX2 (testis expressed 2) | 2.15 | 2.32 | 2.01 | 2.12 | active |
| ACTA1 (actin alpha 1, skeletal muscle) | 0.14 | -0.04 | 0.02 | 0.43 | inactive |
| PTH (parathyroid hormone) | -0.45 | -0.21 | -0.69 | -0.44 | inactive |
| SYT14P1 (synaptotagmin 14 pseudogene 1) | -1.37 | -1.25 | -1.73 | -1.13 | inactive |
| DPY19L1P1 (DPY19L1 pseudogene 1) | -1.76 | -2.04 | -1.51 | -1.72 | inactive |
| NOS1 (nitric oxide synthase 1) | -0.74 | -0.37 | -0.87 | -0.97 | inactive |
| DYNC1I1 (dynein cytoplasmic 1 intermediate chain 1) | 0.14 | 0.25 | 0.1 | 0.09 | inactive |
| OR6K3 (olfactory receptor family 6 subfamily K member 3) | -0.36 | -0.89 | -0.05 | -0.16 | inactive |
| PAFAH1B1 | -0.04 | 0.27 | -0.06 | -0.33 | inactive |
| HUS1B (HUS1 checkpoint clamp component B) | -1.4 | -1.34 | -1.34 | -1.52 | inactive |
| SAT1 (spermidine/spermine N1-acetyltransferase 1) | -0.66 | -0.45 | -0.41 | -1.12 | inactive |
| SCP2D1 (SCP2 sterol binding domain containing 1) | -0.89 | -1.09 | -1.04 | -0.54 | inactive |
| RPL7AP66 (ribosomal protein L7a pseudogene 66) | -3.14 | -3.31 | -3 | -3.11 | inactive |
| PLEKHG4B (pleckstrin homology and RhoGEF domain containing G4B) | 0.15 | 0.16 | 0.34 | -0.06 | inactive |
| PILRB (paired immunoglobin like type 2 receptor beta) | -1.06 | -1.09 | -1.02 | -1.06 | inactive |
| DEFB108B (defensin beta 108B) | 1.12 | 0.9 | 1.43 | 1.04 | inactive |
| CFHR2 (complement factor H related 2) | -0.73 | -0.66 | -0.8 | -0.73 | inactive |
| ATP2B1 (ATPase plasma membrane Ca2+ transporting 1) | -0.2 | 0.1 | -0.44 | -0.26 | inactive |
| RNF170 (ring finger protein 170) | -0.83 | -0.94 | -0.9 | -0.66 | inactive |
| PIMREG (PICALM interacting mitotic regulator) | 0.73 | 0.85 | 0.76 | 0.58 | inactive |
| PNPLA3 | -0.94 | -1.5 | -0.56 | -0.77 | inactive |
| GUSB (glucuronidase beta) | -1.28 | -1.34 | -1.37 | -1.14 | inactive |
| CD248 (CD248 molecule) | -1.08 | -1.25 | -0.9 | -1.09 | inactive |
| MYL6 (myosin light chain 6) | -1.03 | -1.14 | -0.58 | -1.36 | inactive |
| INTS9 (integrator complex subunit 9) | -0.67 | -0.78 | -0.61 | -0.64 | inactive |
| SMIM10L2A (small integral membrane protein 10 like 2A) | -0.24 | -0.38 | -0.13 | -0.23 | inactive |
| SLC15A2 | -0.6 | -0.42 | -0.53 | -0.86 | inactive |
| USP35 (ubiquitin specific peptidase 35) | 0.26 | 0.45 | 0.13 | 0.19 | inactive |
| ATP1B1 (ATPase Na+/K+ transporting subunit beta 1) | 1.58 | 1.47 | 1.72 | 1.54 | inactive |
| KCNA3 (potassium voltage-gated channel subfamily A member 3) | 0.9 | 0.85 | 0.83 | 1.02 | inactive |
| NUDCD1 (NudC domain containing 1) | -0.37 | -0.48 | -0.32 | -0.32 | inactive |
| CIBAR2 (CBY1 interacting BAR domain containing 2) | 0.53 | 0.51 | 0.57 | 0.52 | inactive |
| TRABD2B (TraB domain containing 2B) | 0.65 | 0.5 | 0.65 | 0.79 | inactive |
| NLRP9 (NLR family pyrin domain containing 9) | 0.45 | 0.42 | 0.42 | 0.51 | inactive |
| CFAP251 (cilia and flagella associated protein 251) | 0.94 | 0.97 | 1.03 | 0.82 | inactive |
| IQCK (IQ motif containing K) | -0.02 | -0.09 | -0.06 | 0.1 | inactive |
| MOB3B (MOB kinase activator 3B) | 0.09 | -0.17 | 0.45 | -0.01 | inactive |
| ZNG1B (Zn regulated GTPase metalloprotein activator 1B) | -0.17 | -0.38 | -0.15 | 0.03 | inactive |
| MFAP4 (microfibril associated protein 4) | -0.18 | 0.09 | -0.46 | -0.18 | inactive |
| ST13P3 (ST13, Hsp70 interacting protein pseudogene 3) | 1.28 | 1.29 | 1.3 | 1.25 | inactive |
| LOC400571 (retired record) | -0.22 | -0.08 | -0.34 | -0.25 | inactive |
| GBA2 (glucosylceramidase beta 2) | 0.73 | 0.08 | 0.45 | 1.66 | inactive |
| SLC26A8 | 0.88 | 1.03 | 0.52 | 1.09 | inactive |
| DMRTA2 (DMRT like family A2) | 0.29 | 0.18 | 0.31 | 0.37 | inactive |
| VNN1 (vanin 1) | -0.9 | -0.73 | -1.12 | -0.84 | inactive |
| BFSP2 (beaded filament structural protein 2) | -0.95 | -0.81 | -1.01 | -1.03 | inactive |
| NEURL1 (neuralized E3 ubiquitin protein ligase 1) | 0.46 | 0.24 | 0.6 | 0.53 | inactive |
| TPP2 (tripeptidyl peptidase 2) | 1.24 | 1.4 | 1.26 | 1.07 | inactive |
| LOC400778 (retired record) | 0.2 | 0.23 | 0.03 | 0.33 | inactive |
| FOXP4 (forkhead box P4) | 1.01 | 0.65 | 1.1 | 1.27 | inactive |

Called active, among the entries above:
| gene | mean z-score | z-score, replicate A | z-score, replicate B | z-score, replicate C | activity call |
| --- | --- | --- | --- | --- | --- |
| TEX2 (testis expressed 2) | 2.15 | 2.32 | 2.01 | 2.12 | active |
